Paper PMC6886872, “Discovery of a small molecule inhibitor targeting dengue virus NS5 RNA-dependent RNA polymerase” (PLoS Neglected Tropical Diseases, 2019)

System: RK-0404678-adapted (P9) DENV2 16681 virus
Conditions: nine passages in Vero cells, 50 μM RK-0404678

CC(=O)Oc1ccc2oc(=O)sc2c1 [RK-0404678, (2-Oxo-1,3-benzoxathiol-5-yl) acetate]
emergence of resistance after serial passage: did not gain obvious resistance
